Anti-infective test results gathered from many reports (values: NIAID ChemDB through PubChem).

Common to all: toxicity to cultured cells; cells: MT-4; endpoint: CC50

Two numbers with a dash give a range or band. Lines come from different laboratories, so protocols vary. CCn is the concentration with n% toxicity to the cells.

compound,value
c1ncc(CN2CCCNCCNCCCNCC2)cc1CN1CCCNCCNCCCNCC1,>500 µg/mL
Cc1cn([C@H]2C[C@H](N=[N+]=[N-])[C@@H](CO)O2)c(=O)[nH]c1=O,26.5 µM
CC(C)=CCc1c(O)c(CC=C(C)C)c2occ(-c3ccc(O)cc3)c(=O)c2c1O,11 µg/mL
CN1c2ccccc2Sc2ccccc21,11 µg/mL
Nc1nc(=O)n([C@@H]2CS[C@H](CO)O2)cc1F,20 µM
CCc1c(Sc2ccccc2)n(COCCO)c(=O)[nH]c1=O,400 µM
Nc1ncnc2c1ncn2[C@H]1C=C[C@@H](OCP(=O)(O)O)O1,>100 µM
C=C1OC(C(=O)O)C(/C(=C/C(=O)O)C(=O)OC2C3COC(=O)c4cc(O)c(O)c(O)c4-c4c(cc(O)c(O)c4O)C(=O)OC2C(O)C(OC(=O)c2cc(O)c(O)c(O)c2)O3)c2c1cc(O)c(O)c2O,17 µM
C=C1[C@@H](CO)C[C@H]1n1cnc2c(N)ncnc21,100 µM
C=C(C)[C@@]12OC3(/C=C/C=C/CCCCCCCCCC)OC1C1[C@@H]4O[C@]4(CO)[C@@H](O)[C@]4(O)C(=O)C(C)=CC4C1(O3)[C@H](C)[C@H]2OC(C)=O,15.3 µM
Cc1cn([C@H]2C[C@H](N=[N+]=[N-])[C@@H](CO)O2)c(=O)[nH]c1=O,210 µM
Nc1nc2c(ncn2CC(CF)OCP(=O)(O)O)c(=O)[nH]1,316 µM
COCCOCCC(CCOCCOC)c1cc(O)c(C(c2cccc(NS(=O)(=O)c3cn(C)cn3)c2)C2CC2)c(=O)o1,>30 µM
Cc1c(Sc2ccccc2)n(COCCO)c(=O)[nH]c1=O,>500 µM
Nc1ncnc2c1ncn2C[C@@H](CO)OCP(=O)(O)O,59–168 µM
Nc1nc2c(ncn2C2CC(CO)(CO)C2)c(=O)[nH]1,>500 µM
Nc1nc(N)c2ncn(CC(CF)OCP(=O)(O)O)c2n1,>1000 µM
Nc1ccn([C@@H]2O[C@H](CO)C[C@@H]2F)c(=O)n1,872 µM
CC(C)=CCN1Cc2cccc3[nH]c(=O)n(c23)C[C@@H]1C,470 µM
CCC(Cc1ccccc1)c1cc(O)c(C(c2cccc(NS(=O)(=O)c3ccc(C#N)cc3)c2)C2CC2)c(=O)o1,>30 µM
CC(C)=CCc1c(-c2cc(O)c(O)cc2O)oc2c3c(cc(O)c2c1=O)OC(C)(C)C=C3,4.1 µg/mL
Cc1cn([C@@H]2CC(CO)(CO)CO2)c(=O)[nH]c1=O,>100 µg/mL
Cc1cn([C@H]2C[C@H](N=[N+]=[N-])[C@@H](COP(=O)(OCCSC(=O)C(C)(C)C)Oc3ccc(C[C@@H](CO)NC(=O)OC(C)(C)C)cc3)O2)c(=O)[nH]c1=O,>10 µM
Cc1cn([C@H]2O[C@@H](CO[Si](C)(C)C(C)(C)C)C3(OS(=O)(=O)C=C3N)[C@@H]2O[Si](C)(C)C(C)(C)C)c(=O)[nH]c1=O,7 µg/mL
CC(C)=CCN1Cc2cccc3[nH]c(=S)n(c23)C[C@@H]1C,550 µM
CCC(CCOCCOC)c1cc(O)c(C(c2cccc(NS(=O)(=O)c3cn(C)cn3)c2)C2CC2)c(=O)o1,>30 µM
CCOCn1c(Cc2ccccc2)c(C(C)C)c(=O)[nH]c1=O,102 µM
CCC(=CCN1Cc2c(Br)ccc3[nH]c(=S)n(c23)C[C@@H]1C)CC,53 µM
CC(C)=CCC/C(C)=C/CC/C(C)=C/Cc1c(O)cc(C)c(C(=O)O)c1O,40 µM
Nc1ncnc2c1ncn2[C@@H]1C[C@H](CO)[C@H]1CO,12 µM
Cc1cn([C@H]2C[C@H](N=[N+]=[N-])[C@@H](CO)O2)c(=O)[nH]c1=O,10.8 µM
COc1cc2oc(=O)c(-c3ccc(O)cc3O)cc2c(OC)c1CC=C(C)C,11 µg/mL
CCCN1Cc2cccc3[nH]c(=S)n(c23)CC1C,560 µM
CC(=O)SCCOP(=O)(OCCSC(C)=O)OC[C@@H]1CC[C@H](n2cnc3c(=O)[nH]cnc32)O1,>100 µM
Nc1ncnc2c1ncn2CCOCP(=O)(O)O,21–185 µM
c1cc(CN2CCCNCCNCCCNCC2)cc(CN2CCCNCCNCCCNCC2)c1,>500 µg/mL
C[C@H]1Cn2c(=S)[nH]c3cc(Cl)cc(c32)CN1CCC1CC1,36 µM
Cc1c(Sc2ccccc2)n(COCCO)c(=O)[nH]c1=O,74 µM
C[C@H]1Cn2c(=S)[nH]c3cc(Cl)cc(c32)CN1CC1CCC1,28 µM
Cc1c(SC2CCCCC2)n(COCCO)c(=O)[nH]c1=O,440 µM
Cc1cn([C@H]2C[C@H](N=[N+]=[N-])[C@@H](CO)O2)c(=O)[nH]c1=O,10 µM
CCC(Cc1ccccc1)c1cc(O)c(C(c2cccc(NC(=O)[C@@H](C)NC(=O)OC(C)(C)C)c2)C2CC2)c(=O)o1,>>30 µM
C[C@H]1[C@H](CO)C=C[C@@H]1n1ccc(N)nc1=O,>100 µg/mL
Clc1ccc2c(c1)Nc1ccccc1S2,>500 µg/mL
CC(=O)SCCOP(=O)(OCCSC(C)=O)OC[C@H]1O[C@@H](n2cc(C)c(=O)[nH]c2=O)C[C@@H]1N=[N+]=[N-],>100 µM
CC(C)=CCc1c(O)cc2occ(-c3ccc4c(c3O)C=CC(C)(C)O4)c(=O)c2c1O,6 µg/mL
Nc1ncnc2c1ncn2[C@H]1CC[C@@H](CO)O1,76 µM
CCC(=CCN1Cc2cc(Cl)cc3[nH]c(=O)n(c23)C[C@@H]1C)CC,22 µM

Repeating the final 7 entries:

| compound | value |
|---|---|
| CCC(Cc1ccccc1)c1cc(O)c(C(c2cccc(NC(=O)[C@@H](C)NC(=O)OC(C)(C)C)c2)C2CC2)c(=O)o1 | >>30 µM |
| C[C@H]1[C@H](CO)C=C[C@@H]1n1ccc(N)nc1=O | >100 µg/mL |
| Clc1ccc2c(c1)Nc1ccccc1S2 | >500 µg/mL |
| CC(=O)SCCOP(=O)(OCCSC(C)=O)OC[C@H]1O[C@@H](n2cc(C)c(=O)[nH]c2=O)C[C@@H]1N=[N+]=[N-] | >100 µM |
| CC(C)=CCc1c(O)cc2occ(-c3ccc4c(c3O)C=CC(C)(C)O4)c(=O)c2c1O | 6 µg/mL |
| Nc1ncnc2c1ncn2[C@H]1CC[C@@H](CO)O1 | 76 µM |
| CCC(=CCN1Cc2cc(Cl)cc3[nH]c(=O)n(c23)C[C@@H]1C)CC | 22 µM |